Patent US10408837B2 (priority 2013, dated 2019)

system: BoNT/E; settings: Table 1, C-terminal truncated peptides, Pep-7/Pep-8 = 100

Row | Substance | NT-product (%), relative production of the cleavage product [%]
1 | IIGNLRHMALDMGNEIDTQNRQIDRIM | 10
2 | IIGNLRHMALDMGNEIDTQNRQIDRIME | 15
3 | IIGNLRHMALDMGNEIDTQNRQIDRIMEK | 58
4 | IIGNLRHMALDMGNEIDTQNRQIDRIMEKA | 77
5 | IIGNLRHMALDMGNEIDTQNRQIDRIMEKAD | 68
6 | IIGNLRHMALDMGNEIDTQNRQIDRIMEKADSN | 81
7 | IIGNLRHMALDMGNEIDTQNRQIDRIMEKADSNKTRIDEANQRATKMLGSG | 100

same assay, conditions: Table 1, N-terminal truncated peptides, Pep-1 = 100

Row | Substance | CT-product (%), relative production of the cleavage product [%]
8 | DMGNEIDTQNRQIDRIMEKADSNKTRIDEANQRATKMLGSG | 19
9 | IDTQNRQIDRIMEKADSNKTRIDEANQRATKMLGSG | 0
10 | IIGNLRHMALDMGNEIDTQNRQIDRIMEKADSNKTRIDEANQRATKMLGSG | 89
11 | RHMALDMGNEIDTQNRQIDRIMEKADSNKTRIDEANQRATKMLGSG | 28

same assay, conditions: Table 2, Pep-19 = 100

Row | Substance | NT-product (%), relative production of the N-terminal product [%]
12 | IIIGNLRHMALDMGNEIDTQNRQIDRIMEKADSN | 52
13 | IIIGNLRHMALDMGNEIDTQNRQIDRIMEKADSNKT | 130
14 | IIIGNLRHMALDMGNEIDTQNRQIDRIMEKADSNKTR | 117
15 | IIIGNLRHMALDMGNEIDTQNRQIDRIMEKADSNKTRI | 100

same assay, conditions: Table 2, truncated or modified peptides, Pep-8 = 100

Row | Substance | CT-product (%), relative production of the C-terminal product [%]
16 | GIIGNLRHMALDMGNEIDTQNRQIDRIMEKADSNKT | 81
17 | GNLRHMALDMGNEIDTQNRQIDRIMEKADSNKT | 60
18 | IGNLRHMALDMGNEIDTQNRQIDRIMEKADSNKT | 73
19 | IIIGNLRHMALDMGNEIDTQNRQIDRIMEKADSN | 24
20 | IIIGNLRHMALDMGNEIDTQNRQIDRIMEKADSNKT | 123
21 | IIIGNLRHMALDMGNEIDTQNRQIDRIMEKADSNKTR | 2678
22 | IIIGNLRHMALDMGNEIDTQNRQIDRIMEKADSNKTRI | 2460

same assay, conditions: Table 3, internally deleted peptides, Pep-20 = 100

Row | Substance | CT-product (%), relative production of the C-terminal product [%]
23 | IIIGNLRHMALDMGNEIDTQNRQIDRIMEKADSNKTR | 100
24 | IIIGNLRHMALDMGNE_____RQIDRIMEKADSNKTR | 6
25 | IIIGNLRHMAL_____IDTQNRQIDRIMEKADSNKTR | 17
26 | IIIGNL____LDMGNEIDTQNRQIDRIMEKADSNKTR | 53
27 | IIIGNL_____DMGNEIDTQNRQIDRIMEKADSNKTR | 90
28 | IIIGNL______MGNEIDTQNRQIDRIMEKADSNKTR | 33
29 | IIIGNL_______GNEIDTQNRQIDRIMEKADSNKTR | 88
30 | IIIGNL________NEIDTQNRQIDRIMEKADSNKTR | 2
31 | IIIGN______DMGNEIDTQNRQIDRIMEKADSNKTR | 19
32 | IIIG_______DMGNEIDTQNRQIDRIMEKADSNKTR | 43
33 | III________DMGNEIDTQNRQIDRIMEKADSNKTR | 30

same assay, conditions: Table 3, second series, Pep-29 = 100

Row | Substance | CT-product (%), relative production of the C-terminal product [%] | NT-product (%), relative production of the N-terminal product [%]
34 | IIIGNL_______GNEIDTQNRQIDRIMEKADSNKTR | 100 | 100
35 | IIIGNL_______GNEIDTQNRQIDRIMEKADSNR | 104 | 84

same assay, conditions: Table 5, multiple mutations, Pep-44 = 100

Row | Substance | CT-product (%)
36 | IIIAKLGNEIDTQNRQKDRIMAKADSNKR | 122
37 | IIIAKLGNEIDTRNRQIDRIMEKADSNKR | 101
38 | IIIAKLGNEIDTRNRQKDRIMAKADSNKR | 137
39 | IIIAKLGNEIDTRNRQKDRIMEKAKSKKR | 44
40 | IIIAKLGQEIDTRNRQKDRIMEKADSNKR | 152
41 | IIIGKLGNEIDTRNRQIDRIMEKADSNKR | 103
42 | IIIGNLGNEIDTQNRQIDRIKAKAKSKKR | 131
43 | IIIGNLGNEIDTQNRQIDRIMEKAKKKKR | 134
44 | IIIGNLGNEIDTQNRQIDRIMEKAKRKKR | 132
45 | IIIGNLGNEIDTQNRQIDRIMEKAKSKKR | 123
46 | IIIGNLGNEIDTQNRQIDRIMEKAKSNKR | 100
47 | IIIGNLGNEIDTQNRQIDRIMEKARRKKR | 128
